# Structure probing of HIV-1 leader RNA with DMS

RNA: 5' end of the HIV-1 NL4-3 genome, made in vitro. Positions 1-437 read:
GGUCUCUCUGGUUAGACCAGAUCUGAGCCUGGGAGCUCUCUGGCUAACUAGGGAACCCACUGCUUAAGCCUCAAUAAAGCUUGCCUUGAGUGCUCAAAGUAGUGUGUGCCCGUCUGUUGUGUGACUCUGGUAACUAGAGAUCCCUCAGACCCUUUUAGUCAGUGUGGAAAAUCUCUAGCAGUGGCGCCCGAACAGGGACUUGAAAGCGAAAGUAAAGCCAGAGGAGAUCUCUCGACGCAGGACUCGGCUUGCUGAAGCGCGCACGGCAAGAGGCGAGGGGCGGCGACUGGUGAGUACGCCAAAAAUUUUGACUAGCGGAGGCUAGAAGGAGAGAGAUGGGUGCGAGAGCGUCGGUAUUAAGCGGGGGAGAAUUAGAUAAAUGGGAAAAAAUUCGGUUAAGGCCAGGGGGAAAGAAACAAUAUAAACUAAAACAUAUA

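Mutant RNA libraries with 1G, 2G or 3G starts, with or without cap, were folded at 37 °C for 30 min. Monomer and dimer bands were cut from native gels after folding in high salt (300 mM KCl, 5 mM MgCl2) or low salt (40 mM KCl, 0.1 mM MgCl2). Each band was probed in the gel with DMS (170 mM, 15 min, 37 °C), with ethanol as control, and sequenced.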

Scale: normalised reactivity, A and C only; low values point to paired or protected bases, higher values to unpaired ones.
One numbering serves 1G, 2G and 3G.
A position is written with its base.

For A19 the result was 1G capped high-salt dimer 0.04; 1G capped low-salt monomer 0.04; 2G uncapped low-salt monomer 0.03. A21 read 1G capped high-salt dimer 0.57; 1G capped low-salt monomer 0.56; 2G uncapped low-salt monomer 0.57. C23 gave 1G capped high-salt dimer 1.11; 1G capped low-salt monomer 1.18; 2G uncapped low-salt monomer 1.31. For A26 the result was 1G capped high-salt dimer 0.25; 1G capped low-salt monomer 0.18; 2G uncapped low-salt monomer 0.10. C28 gave 1G capped high-salt dimer 0.06; 1G capped low-salt monomer 0.04; 2G uncapped low-salt monomer 0.03. C29 read 1G capped high-salt dimer 0.12; 1G capped low-salt monomer 0.13; 2G uncapped low-salt monomer 0.09. A34 read 1G capped high-salt dimer 1.00; 1G capped low-salt monomer 1.00; 2G uncapped low-salt monomer 1.12. With C36 the assay gave 1G capped high-salt dimer 0.07; 1G capped low-salt monomer 0.04; 2G uncapped low-salt monomer 0.03. For C38 the result was 1G capped high-salt dimer 0.04; 1G capped low-salt monomer 0.04; 2G uncapped low-salt monomer 0.03.

C40 read 1G capped high-salt dimer 0.04; 1G capped low-salt monomer 0.04; 2G uncapped low-salt monomer 0.03. C44 gave 1G capped high-salt dimer 0.04; 1G capped low-salt monomer 0.04; 2G uncapped low-salt monomer 0.03. With A46 the assay gave 1G capped high-salt dimer 0.09; 1G capped low-salt monomer 0.06; 2G uncapped low-salt monomer 0.04. With A47 the assay gave 1G capped high-salt dimer 0.22; 1G capped low-salt monomer 0.20; 2G uncapped low-salt monomer 0.14. C48 gave 1G capped high-salt dimer 0.14; 1G capped low-salt monomer 0.11; 2G uncapped low-salt monomer 0.03. A50 read 1G capped high-salt dimer 0.25; 1G capped low-salt monomer 0.23; 2G uncapped low-salt monomer 0.14. With A54 the assay gave 1G capped high-salt dimer 0.22; 1G capped low-salt monomer 0.20; 2G uncapped low-salt monomer 0.14. A55 gave 1G capped high-salt dimer 0.44; 1G capped low-salt monomer 0.51; 2G uncapped low-salt monomer 0.27. For C56 the result was 1G capped high-salt dimer 0.16; 1G capped low-salt monomer 0.17; 2G uncapped low-salt monomer 0.04.

C57 read 1G capped high-salt dimer 0.50; 1G capped low-salt monomer 0.57; 2G uncapped low-salt monomer 0.03. With C58 the assay gave 1G capped high-salt dimer 0.10; 1G capped low-salt monomer 0.21; 2G uncapped low-salt monomer 1.00. A59 read 1G capped high-salt dimer 0.33; 1G capped low-salt monomer 0.46; 2G uncapped low-salt monomer 0.56. For C60 the result was 1G capped high-salt dimer 0.10; 1G capped low-salt monomer 0.24; 2G uncapped low-salt monomer 0.41. With C63 the assay gave 1G capped high-salt dimer 0.04; 1G capped low-salt monomer 0.11; 2G uncapped low-salt monomer 0.26. A66 gave 1G capped high-salt dimer 1.07; 1G capped low-salt monomer 0.89; 2G uncapped low-salt monomer 0.94. A67 read 1G capped high-salt dimer 0.52; 1G capped low-salt monomer 0.60; 2G uncapped low-salt monomer 0.81. With C69 the assay gave 1G capped high-salt dimer 0.04; 1G capped low-salt monomer 0.04; 2G uncapped low-salt monomer 0.03. C70 gave 1G capped high-salt dimer 0.04; 1G capped low-salt monomer 0.04; 2G uncapped low-salt monomer 0.03.

With C72 the assay gave 1G capped high-salt dimer 0.19; 1G capped low-salt monomer 0.16; 2G uncapped low-salt monomer 0.08. A73 read 1G capped high-salt dimer 0.04; 1G capped low-salt monomer 0.04; 2G uncapped low-salt monomer 0.04. With A74 the assay gave 1G capped high-salt dimer 0.64; 1G capped low-salt monomer 0.73; 2G uncapped low-salt monomer 0.78. A76 gave 1G capped high-salt dimer 0.26; 1G capped low-salt monomer 0.27; 2G uncapped low-salt monomer 0.27. For A77 the result was 1G capped high-salt dimer 0.74; 1G capped low-salt monomer 0.71; 2G uncapped low-salt monomer 0.82. With A78 the assay gave 1G capped high-salt dimer 0.64; 1G capped low-salt monomer 0.73; 2G uncapped low-salt monomer 0.76. C80 gave 1G capped high-salt dimer 0.42; 1G capped low-salt monomer 0.36; 2G uncapped low-salt monomer 0.37. With C84 the assay gave 1G capped high-salt dimer 0.74; 1G capped low-salt monomer 0.56; 2G uncapped low-salt monomer 0.42. C85 read 1G capped high-salt dimer 0.43; 1G capped low-salt monomer 0.31; 2G uncapped low-salt monomer 0.26.

With A89 the assay gave 1G capped high-salt dimer 0.40; 1G capped low-salt monomer 0.54; 2G uncapped low-salt monomer 0.51. For C93 the result was 1G capped high-salt dimer 0.04; 1G capped low-salt monomer 0.04; 2G uncapped low-salt monomer 0.03. With C95 the assay gave 1G capped high-salt dimer 0.54; 1G capped low-salt monomer 0.52; 2G uncapped low-salt monomer 0.52.

3 of these entries, quoted again:

| position | 1G capped high-salt dimer | 1G capped low-salt monomer | 2G uncapped low-salt monomer |
|---|---|---|---|
| A67 | 0.52 | 0.60 | 0.81 |
| A73 | 0.04 | 0.04 | 0.04 |
| C80 | 0.42 | 0.36 | 0.37 |

Source: Ye et al. 2022 (doi:10.1038/s41594-022-00746-2), supplementary data.